Compound potency records, mixed from different reports. Data source: NIAID ChemDB in PubChem.

Shared fields: growth or infection tests; species: Hepatitis C virus; method: replicon; read-out: EC50

Rows are shuffled and stem from different studies. Blank or dashed fields: not listed here. a–b is a range or a potency band. ECn is the concentration giving n% inhibition of infection, replication or growth.

smiles	strain	cell line	value
O=C(Nc1cccc(-c2cc(-c3c(F)cccc3S(=O)(=O)N3CCOCC3)no2)c1)C(Cl)Cl	-	-	≤10 µM
CCOc1cc2c(C(=O)NC)c(-c3ccc(F)cc3)oc2cc1N(CC)S(C)(=O)=O	-	Huh7	<1 µM
Cc1cc(-c2cc(N(C(=O)C3CCC(C)CC3)C(C)C)c(C(=O)O)s2)ncc1NC(=O)c1cscn1	1a	-	<0.5 µM
C=CC1CC1(NC(=O)[C@@H]1C[C@@H](Oc2cc(-c3ccccc3)nc3cc(OC)ccc23)CN1C(=O)[C@@H](CC(=O)N1CCc2ccccc2C1)C(C)(C)C)C(=O)OCC	-	-	>10 µM
O=C(Nc1cccc(-c2cc(-c3cc(C(F)(F)F)ccc3Cl)no2)c1)C(Cl)Cl	-	-	>10 µM
CC1CCC(C(=O)N(CC(F)(F)F)c2cc(-c3ccc(NC(=O)c4cscn4)cc3)sc2C(=O)O)CC1	1b	-	<0.5 µM
CNC(=O)c1c(-c2ccc(F)cc2)oc2cc(N(C)S(C)(=O)=O)c(OCc3cccc(C(=O)O)c3)cc12	-	Huh7	<1 µM
C=CC1CC1(NC(=O)[C@@H]1C[C@@H](Oc2cc(-c3ccccc3)nc3cc(OC)ccc23)CN1C(=O)[C@@H](CC(=O)N1CCCc2ccccc21)C(C)(C)C)C(=O)OCC	-	-	>10 µM
CC1CCC(C(=O)N(c2cc(-c3ccc(NC(=O)c4ncco4)cc3)sc2C(=O)O)C(C)C)CC1	1a	-	<0.5 µM
CNC(=O)c1c(-c2ccc(F)cc2)oc2cc(N(C)S(C)(=O)=O)c(OCC(C)=O)cc12	-	Huh7	<1 µM
CC1CCC(C(=O)N(c2cc(-c3ccc(NC(=O)c4cscn4)cc3)sc2C(=O)[O-])C(C)C)CC1.[NH3+]CCO	1b	-	<0.5 µM
O=C(Nc1cccc(-c2cc(-c3c(Cl)cccc3Cl)no2)c1)C(Br)Br	-	-	≤10 µM
CC1CCC(C(=O)N(c2cc(-c3ccc(NC(=O)c4cn(C)cn4)cc3)sc2C(=O)O)C(C)C)CC1	1b	-	<0.5 µM
CNC(=O)c1c(-c2ccc(F)cc2)oc2cc(-c3cc(COC)no3)c(OC(C)C)cc12	-	Huh7	30 µM
C=CC1CC1(NC(=O)[C@@H]1C[C@@H](Oc2cc(-c3ccccc3)nc3cc(OC)ccc23)CN1C(=O)[C@@H](CC(=O)N1CCC(O)C1)C(C)(C)C)C(=O)O	-	-	>10 µM
Cc1ccc(F)c(-c2cc(-c3cccc(NC(=O)C(Cl)Cl)c3)on2)c1F	-	-	>10 µM
CNC(=O)c1c(-c2ccc(F)cc2)oc2cc(NC)c(OC(C)C)cc12	-	Huh7	<1 µM
CC1CCC(C(=O)N(c2cc(-c3ccc(NC(=O)c4cscn4)cc3)sc2C(=O)[O-])C(C)C)CC1.NC(CCCC[NH3+])C(=O)O	1b	-	<0.5 µM
C=CC1CC1(NC(=O)[C@@H]1C[C@@H](Oc2cc(-c3ccccc3)nc3cc(OC)ccc23)CN1C(=O)[C@@H](CC(=O)N1CCCCC1C(N)=O)C(C)(C)C)C(=O)O	-	-	1–10 µM
CCN(C(=O)C1CCC(C)CC1)c1cc(-c2ccc(NC(=O)c3cn(C)cn3)cc2)sc1C(=O)O	1b	-	<0.5 µM
C=C[C@@H]1C[C@]1(NC(=O)[C@@H]1C[C@@H](Oc2cc(-c3ccccc3)nc3cc(OC)ccc23)CN1C(=O)[C@@H](CC(=O)N1CCCCC1)C(C)(C)C)C(=O)NS(=O)(=O)C1CC1	-	-	<100 µM
Cc1cccc(-c2cc(-c3cccc(NC(=O)C(Cl)Cl)c3)on2)c1C	-	-	>10 µM
COCC(C)N(C(=O)C1CCC(C(F)(F)F)CC1)c1cc(-c2ccc(NC(=O)c3cscn3)cc2)sc1C(=O)O	1a	-	<0.5 µM
CNC(=O)c1c(-c2ccc(F)cc2)oc2cc(-c3cc(COC(C)C)on3)c(OC)cc12	-	Huh7	<1 µM
CCOC(=O)[C@@]12C[C@H]1/C=C\CCCCC[C@H](CC(=O)OC(C)(C)C)C(=O)N1C[C@H](Oc3cc(-c4ccccc4)nc4cc(OC)ccc34)C[C@H]1C(=O)N2	-	-	>10 µM
CC1CCC(C(=O)N(c2cc(-c3ccc(NC(=O)c4cnco4)cc3)sc2C(=O)O)C(C)C)CC1	1a	-	>0.5 µM
CN(C(=O)C(Cl)Cl)c1cccc(-c2cc(-c3c(Cl)cccc3Cl)no2)c1	-	-	≤10 µM
C=CC1CC1(NC(=O)[C@@H]1C[C@@H](Oc2cc(-c3ccccc3)nc3cc(OC)ccc23)CN1C(=O)[C@@H](CC(=O)N1CCN(C)CC1)C(C)(C)C)C(=O)O	-	-	>10 µM
Cc1cccc(C(F)(F)F)c1-c1cc(-c2cccc(NC(=O)C(Cl)Cl)c2)on1	-	-	≤10 µM
CCOC(=O)[C@]12C[C@@H]1/C=C\CCCCC[C@H](CC(=O)OC(C)(C)C)C(=O)N1C[C@H](Oc3cc(-c4ccccc4)nc4cc(OC)ccc34)C[C@H]1C(=O)N2	-	-	1–10 µM

Repeating the final 4 entries:

CN(C(=O)C(Cl)Cl)c1cccc(-c2cc(-c3c(Cl)cccc3Cl)no2)c1 ; value: ≤10 µM
C=CC1CC1(NC(=O)[C@@H]1C[C@@H](Oc2cc(-c3ccccc3)nc3cc(OC)ccc23)CN1C(=O)[C@@H](CC(=O)N1CCN(C)CC1)C(C)(C)C)C(=O)O ; value: >10 µM
Cc1cccc(C(F)(F)F)c1-c1cc(-c2cccc(NC(=O)C(Cl)Cl)c2)on1 ; value: ≤10 µM
CCOC(=O)[C@]12C[C@@H]1/C=C\CCCCC[C@H](CC(=O)OC(C)(C)C)C(=O)N1C[C@H](Oc3cc(-c4ccccc4)nc4cc(OC)ccc34)C[C@H]1C(=O)N2 ; value: 1–10 µM